Columns and labels:
Homo sapiens [1] = species on record: Homo sapiens; assay: Selectivity ratio of IC50 for human full length ABHD6 expressed in Escherichia coli cells to IC50 for human recombinant MBP-tagged FAAH expressed in Escherichia coli cells by fluorescence based assay
Homo sapiens [2] = species on record: Homo sapiens; assay: Selectivity ratio of IC50 for human recombinant His-tagged MGL expressed in Escherichia coli BL21 DE3 cells to IC50 for human recombinant MBP-tagged FAAH expressed in Escherichia coli cells by fluorescence based assay
[3] = Selectivity ratio of IC50 for human full length ABHD6 expressed in Escherichia coli cells to IC50 for rat recombinant His/GST-tagged FAAH expressed in Escherichia coli cells by fluorescence based assay
[4] = Selectivity ratio of IC50 for human recombinant His-tagged MGL expressed in Escherichia coli BL21 DE3 cells to IC50 for rat recombinant His/GST-tagged FAAH expressed in Escherichia coli cells by fluorescence based assay

Measured: Ratio IC50

O=C(Oc1cncc(N2CCS(=O)(=O)CC2)c1)N1CCC(c2ccc(F)cc2)CC1
> 1000: Homo sapiens [1] | Homo sapiens [2] | [3] | [4]

Source: ChEMBL document CHEMBL4359929, “Piperidine and piperazine inhibitors of fatty acid amide hydrolase targeting excitotoxic pathology” (Bioorg Med Chem, 2019)
